Measured values from several laboratories, pooled; numbers as filed in NIAID ChemDB.

All rows: toxicity to cultured cells; endpoint: CC50

CCn is the concentration with n% toxicity to the cells. Blank or dashed fields: not listed here. Rows are shuffled and stem from different studies.

SMILES,cells,method,value
O=c1c2ncn(COC(CO)CO)c2nc2[nH]c(-c3ccc(C(F)(F)F)cc3)cn12,OST TK-,,>500 µg/mL
CCCCS(=O)(=O)Nc1ccc2[nH]c(C(=O)NCc3ccccc3F)c(C)c2c1,VERO,resazurin,>120 µM
c1ccc(COC[C@H]2CC[C@@H](COc3cc(OC[C@H]4CC[C@@H](COCc5ccccc5)O4)ncn3)O2)cc1,PC-3,,17 µM
CC[C@@H]1/C=C(\C)C[C@H](C)C[C@H](OC)[C@H]2O[C@@](O)(C(=O)C(=O)N3CCCC[C@H]3C(=O)O[C@H](/C(C)=C/[C@H]3CC[C@H](O)[C@H](OC)C3)[C@H](C)[C@@H](O)CC1=O)[C@H](C)C[C@@H]2OC,MOLT-3,,20 µg/mL
Cc1cn([C@H]2C[C@H](N=[N+]=[N-])[C@@H](CO)O2)c(=O)[nH]c1=O,MAGI,MTT,>100 µg/mL
Nc1nc2c(sc(=O)n2C/C=C\CO)c(=O)[nH]1,KB cells (growing),,>100 µM
Nc1nc(N)nc(OC[C@H]2CC[C@@H](COCc3ccccc3)O2)n1,L1210,,235 µM
Cc1c(-c2ccccc2)n(-c2ccc(F)cc2)c2ccc(C(C)C)cc2c1=O,HeLa S3,MTT,>2 µg/mL
CC1COc2c(N3CCn4cc(C(=O)O)nc4C3)c(F)c([N+](=O)[O-])c3c(=O)c(C(=O)O)cn1c23,Mammalian Vero cells,MTT,132 µM
O=c1c2ncn(COCCO)c2nc2[nH]c(-c3ccccc3)c(Cc3ccc(F)cc3)n12,OST TK-/HSV-1 TK+,,0.73 µg/mL
CCCCCS(=O)(=O)Nc1ccc2[nH]c(C(=O)O)c(C)c2c1,VERO,resazurin,>150 µM
Nc1nc(=O)c2ncn([C@@H]3O[C@H](CO)[C@@H](O)[C@H]3O)c2c(=O)[nH]1,CFU-GM,,52 µM
Brc1ccc2cc(-c3ccccc3)cn2c1,MRC-5,MTT,>500 µM
COc1cc(OC[C@H]2CC[C@@H](CO)O2)nc(N)n1,PC-3,,>250 µM
c1ccn2cc(-c3ccoc3)cc2c1,MRC-5,MTT,>500 µM
Nc1nc(N)c2nc(CNc3ccc(C(=O)NC(CCP(=O)(O)O)C(=O)O)cc3)cnc2n1,L1210/R81,,240 µM
COC1CCCCC1NC(=O)NCCc1ccc2c(n1)NCCC2,PBMC,,50 µM
N#Cc1ccc(-c2cc3ccccn3c2)cc1,MRC-5,MTT,>500 µM
CCC(C)Oc1ccc(-c2cc3c(-c4ccnc(NC5CCCC5)n4)ccc(NC4CCCC4)n3n2)cc1,VERO 76,,>100 µM
Cc1ccc(CCNc2nnc(NCC[N+](C)(C)c3ccc(Cl)cc3)nn2)cc1,Mammalian cells,,>150 µM
COc1cc2c(=O)c(C)c(-c3ccccc3)n(C)c2cc1C(C)C,HeLa S3,MTT,>10 µg/mL
CCCCCCOC(=O)[C@@]1(C)CC[C@]2(C)CC[C@]3(C)C(=CC(=O)[C@@H]4[C@@]5(C)CC[C@H](O)C(C)(C)[C@@H]5CC[C@]43C)[C@@H]2C1,HepG2.2.15,,175 µM
Nc1nc(Cl)cc(OC[C@H]2O[C@H](COCc3ccccc3)[C@@H](OCc3ccccc3)[C@H]2OCc2ccccc2)n1,CAKI-1,,>250 µM
CC(=O)c1c(-c2ccc(C#N)cc2)cc2ccccn12,MRC-5,MTT,>500 µM
Oc1cccc(-c2cc3c(-c4ccnc(NC5CCCC5)n4)ccc(NC4CCCC4)n3n2)c1,VERO 76,,>40 µM
CN(CCc1ccc2c(n1)NCCC2)C(=O)N(C)c1cccc(F)c1,PBMC,,50 µM
NC(=S)Nc1cccc(OCCCCCOc2ccc(Cc3ccccc3)cc2)c1,Ava5-EG(delta4AB)SEAP,MTS,>1 µM
O=C1C=CC(=O)C1=Cc1ccc(Cl)cc1,HeLa S3,XTT,>10 µM
CC(C)(CO)C(=O)Nc1ccc(NS(=O)(=O)c2cccc3c(N)cccc23)cc1,Human embryonic lung fibroblasts,,125 µM
CCn1c(-c2ccccc2)c(C)c(=O)c2cc(-c3ccccc3)ccc21,HeLa S3,MTT,>2.5 µg/mL
CCC(C)[C@H](NC(=O)[C@H](Cc1cccc2ccccc12)CS(=O)(=O)C(C)(C)C)C(=O)N[C@@H](Cc1ccccc1)[C@@H](O)[C@H](O)[C@H](Cc1ccccc1)NC(=O)[C@@H](NC(=O)[C@H](Cc1cccc2ccccc12)CS(=O)(=O)C(C)(C)C)C(C)CC,PBLC,,>0.01 µM
NC(=S)Nc1cccc(NCCCCCc2ccccc2)c1,Ava5-EG(delta4AB)SEAP,MTS,>1 µM
CC(C)(C)C(=O)Nc1ccc(NS(=O)(=O)c2cccc3ccccc23)cc1,Mouse fibroblast cell lines,,31.3 µM
CC(=O)N1c2ccccc2NC2=C(C(=O)CC(C)(C)C2)C1c1ccc(OCc2ccccc2)cc1,Huh7-CMV-Luc,,>32 µM
CNc1nnc(NCc2ccccc2)nn1,Mammalian cells,,>115 µM
CN(C)c1cccc2c(S(=O)(=O)Nc3ccc(NC(=O)C(C)(C)CF)cc3)cccc12,Mouse fibroblast cell lines,,31.3 µM
Cc1c(C#N)[nH]c2ccc(NS(=O)(=O)CCCC(F)(F)F)cc12,VERO,resazurin,>140 µM
Cc1onc(-c2c(F)cccc2F)c1C(=O)N1CCN(c2c(F)c([N+](=O)[O-])c3c(=O)c(C(=O)O)cn4c3c2OCC4C)CC1,Mammalian Vero cells,MTT,102 µM
O=C(O)c1cccc(-c2cc3c(-c4ccnc(NC5CCCC5)n4)ccc(NC4CCCC4)n3n2)c1,VERO 76,,>40 µM
CN(C)c1ccc(C=C2C(=O)C=CC2=O)cc1,HeLa S3,XTT,>10 µM
Cc1nc2cc(OC(F)(F)F)ccc2n1-c1ccc(C(=O)NC2CC2)s1,Kidney epithelial cells,resazurin,>62 µM
CN(C)c1cccc2c(S(=O)(=O)Nc3ccc(NC(=O)C(C)(C)CO)cc3)cccc12,Mouse fibroblast cell lines,,62.5 µM
COc1ccc(-n2c(-c3ccccc3)c(C)c(=O)c3cc(C(C)C)ccc32)cc1,HELA-OHIO,MTT,>2.5 µg/mL
c1ccc(-c2cc3c(-c4ccnc(NC5CCCC5)n4)ccc(NC4CCCC4)n3n2)cc1,VERO 76,,>40 µM
O=C1C=CC(=O)C1=Cc1ccc(F)cc1,HeLa S3,XTT,>10 µM
CCCCS(=O)(=O)Nc1ccc2[nH]c(C(=O)NC3CC(F)C3)c(C)c2c1,VERO,resazurin,>130 µM
CC(C)[C@H](NC(=O)[C@H](Cc1cccc2ccccc12)CS(=O)(=O)C(C)(C)C)C(=O)N[C@@H](Cc1ccccc1)[C@@H](O)[C@H](O)[C@H](Cc1ccccc1)NC(=O)[C@@H](NC(=O)[C@H](Cc1cccc2ccccc12)CS(=O)(=O)C(C)(C)C)C(C)C,PBLC,,>0.003 µM
COc1ccc(CCNC(=O)CCO[Si](C)(C)C(C)(C)C)cc1OC,HEK 293,,<13.5 µM
O=C1C=CC(=O)C1=C/C=C/c1ccccc1,HeLa S3,XTT,>10 µM
NC(=S)Nc1cccc(OCCCCCOc2cccc(Nc3ccccc3)c2)c1,Ava5-EG(delta4AB)SEAP,MTS,>1 µM
Cc1c(OCC(C)C)ccc2c1c(=O)cc(-c1ccccc1)n2C,HELA-OHIO,MTT,>5 µg/mL
COc1cc(OCCCCCOc2cccc(NC(N)=S)c2)cc(OC)c1OC,Ava5-EG(delta4AB)SEAP,MTS,>1 µM
CCCCS(=O)(=O)Nc1ccc2[nH]c(C(=O)NCCCc3ccccc3)c(C)c2c1,VERO,resazurin,>120 µM
CCCCNc1nnc(NCc2ccccc2)nn1,Mammalian cells,,>115 µM
O=C(NCCc1ccc2c(n1)NCCC2)NCc1ccc(F)cc1,PBMC,,50 µM
O=C1C=CC(=O)C1=C/C=C/c1ccc(Cl)cc1,HeLa S3,XTT,>10 µM
CC1(C)[C@@H](O)CC[C@]2(C)[C@H]3C(=O)C=C4[C@@H]5C[C@@](C)(C(=O)OCC(N)=O)CC[C@]5(C)CC[C@@]4(C)[C@]3(C)CC[C@@H]12,HepG2.2.15,,55.33 µM
COc1cc(OC[C@H]2CC[C@@H](CO)O2)ncn1,CAKI-1,,150 µM
C=CCCN(Cc1cc(OC)cc(OC)c1)C(=O)CC(C)=O,HEK 293,,<7.5 µM
O=c1c2ncn(COCCO)c2nc2[nH]c(-c3ccc(F)cc3)cn12,OST TK-/HSV-1 TK+,,0.27 µg/mL
NC(=S)Nc1cccc(OCCCCCOc2cccc3cnccc23)c1,Ava5-EG(delta4AB)SEAP,MTS,>1 µM
C[C@@]1(O)[C@H](O)[C@@H](COP(=O)(O)OP(=O)(O)OP(=O)(O)O)O[C@H]1n1ccc2c(N)ncnc21,HELA OHIO-1,,>200 µM
O=S(=O)(NCCc1ccc2c(n1)NCCC2)c1cccc(C(F)(F)F)c1,PBMC,,50 µM
NC(=S)Nc1cccc(OCCCCCOc2ccc(-c3ccsc3)cc2)c1,Ava5-EG(delta4AB)SEAP,MTS,>1 µM
Cc1cccc(-c2cc3c(-c4ccnc(NC5CCCC5)n4)ccc(NC4CCCC4)n3n2)c1,VERO 76,,>40 µM
Nc1nc(N)c2nc(CNc3ccc(C(=O)NC(CCCP(=O)(O)O)C(=O)O)cc3)cnc2n1,L1210/R81,,>460 µM
COc1cc2c(cc1OC)CN(c1c(F)cc3c(=O)c(C(=O)O)cn4c3c1OCC4C)CC2,Mammalian Vero cells,MTT,>138 µM
Cc1cc2c(cc1OCC(C)C)c(=O)c(C)c(-c1ccccc1)n2C,HeLa S3,MTT,>5 µg/mL
CC(C)N(Cc1cccc(OCCCCCC(=O)OC(=O)O)c1)C(=O)c1ccc(-c2ccsc2)cc1,HEK 293,,>20 µM
C=CCOC(=O)[C@@]1(C)CC[C@]2(C)CC[C@]3(C)C(=CC(=O)[C@@H]4[C@@]5(C)CCC(O)C(C)(C)[C@@H]5CC[C@]43C)[C@@H]2C1,HepG2.2.15,,>2310 µM
CCCCS(=O)(=O)Nc1ccc2[nH]c(C(=O)NCc3cccc(F)c3)c(C)c2c1,VERO,resazurin,>120 µM
O=C1C=CC(=O)C1=Cc1cccc(Br)c1,HeLa S3,XTT,>10 µM
Nc1nc(Cl)cc(OC[C@@H]2O[C@H](COCc3ccccc3)[C@@H](OCc3ccccc3)[C@H]2OCc2ccccc2)n1,L1210,,33 µM
COc1cccc(/C=C/C(=O)O[C@H]2CC[C@]3(C)[C@H]4CC=C5[C@@H]6C[C@@](C)(C(=O)OCc7ccc(C(F)(F)F)cc7)CC[C@]6(C)CC[C@@]5(C)[C@]4(C)CC[C@H]3C2(C)C)c1,HepG2.2.15,,>899 µM
CC1(C)CCC[C@]2(C)[C@H]3C[C@@H](C4=CCOC4=O)CC3=CC[C@@H]12,HT-29,absorbance,42 µM
COc1ccc(C[C@H](NC(=O)[C@@H](NC(=O)[C@H](Cc2cccc3ccccc23)CS(=O)(=O)C(C)(C)C)C(C)C)[C@@H](O)[C@H](O)[C@H](Cc2ccc(OC)cc2OC)NC(=O)[C@@H](NC(=O)[C@H](Cc2cccc3ccccc23)CS(=O)(=O)C(C)(C)C)C(C)C)c(OC)c1,PBLC,,>0.175 µM
Nc1nc(N)nc(OC[C@H]2CC[C@@H](CO)O2)n1,PC-3,,>250 µM
CC1COc2c(N3CCn4cc(C(=O)O)nc4C3)c(F)c(N)c3c(=O)c(C(=O)O)cn1c23,Mammalian Vero cells,MTT,>141 µM
CCCCS(=O)(=O)Nc1ccc2[nH]c(C(=O)NC3CCOCC3)c(C)c2c1,VERO,resazurin,64 µM
CCCCCCCCOC(=O)[C@@]1(C)CC[C@]2(C)CC[C@]3(C)C(=CC(=O)[C@@H]4[C@@]5(C)CC[C@H](O)C(C)(C)[C@@H]5CC[C@]43C)[C@@H]2C1,HepG2.2.15,,>1450 µM
CCC[C@H](NC(=O)[C@H](Cc1cccc2ccccc12)CS(=O)(=O)C(C)(C)C)C(=O)N[C@@H](Cc1ccccc1)[C@@H](O)[C@H](O)[C@H](Cc1ccccc1)NC(=O)[C@H](CCC)NC(=O)[C@H](Cc1cccc2ccccc12)CS(=O)(=O)C(C)(C)C,PBLC,,>0.004 µM
Cc1ccn(-c2cccc(CCNC(=O)NCc3ccc(Cl)c(Cl)c3)n2)n1,PBMC,,50 µM
c1ccc(-c2cc3ccccn3c2)nc1,MRC-5,MTT,214 µM
CC1CN(c2c(F)c([N+](=O)[O-])c3c(=O)c(C(=O)O)cn4c3c2OCC4C)CC(C)O1,Mammalian Vero cells,MTT,148 µM
COc1cc(/C=C/C(=O)O[C@H]2CC[C@]3(C)[C@H]4CC=C5[C@@H]6C[C@@](C)(C(=O)OCc7ccc(C(F)(F)F)cc7)CC[C@]6(C)CC[C@@]5(C)[C@]4(C)CC[C@H]3C2(C)C)cc(OC)c1OC,HepG2.2.15,,>987 µM
CC(C)N(Cc1cccc(OCCCCCC(=O)OC(=O)O)c1)C(=O)c1ccc(-c2c[nH]c3ccccc23)cc1,RAJI,,>20 µM
COc1ccc(-c2c(C)c(=O)c3c(C)c(OCC(C)C)ccc3n2C)cc1C,HELA-OHIO,MTT,>4 µg/mL

The last 6 rows once more:

SMILES | cells | method | value
Cc1ccn(-c2cccc(CCNC(=O)NCc3ccc(Cl)c(Cl)c3)n2)n1 | PBMC |  | 50 µM
c1ccc(-c2cc3ccccn3c2)nc1 | MRC-5 | MTT | 214 µM
CC1CN(c2c(F)c([N+](=O)[O-])c3c(=O)c(C(=O)O)cn4c3c2OCC4C)CC(C)O1 | Mammalian Vero cells | MTT | 148 µM
COc1cc(/C=C/C(=O)O[C@H]2CC[C@]3(C)[C@H]4CC=C5[C@@H]6C[C@@](C)(C(=O)OCc7ccc(C(F)(F)F)cc7)CC[C@]6(C)CC[C@@]5(C)[C@]4(C)CC[C@H]3C2(C)C)cc(OC)c1OC | HepG2.2.15 |  | >987 µM
CC(C)N(Cc1cccc(OCCCCCC(=O)OC(=O)O)c1)C(=O)c1ccc(-c2c[nH]c3ccccc23)cc1 | RAJI |  | >20 µM
COc1ccc(-c2c(C)c(=O)c3c(C)c(OCC(C)C)ccc3n2C)cc1C | HELA-OHIO | MTT | >4 µg/mL